Experiments:
Format in all cases: cell-based
SARS-CoV-2 (Alpha) = assay: SARS-CoV-2 (alpha strain) inhibition plaque assay on Vero E6 cells; conditions: CC50 Vero E6 / EC50
HSV-2 = HSV-2 inhibition (dose response) plaque assay on Vero cells; conditions: CC50 Vero / EC50 HSV-2
SARS-CoV-2 (Omicron) = assay: SARS-CoV-2 Omicron dose-response assay on Vero E6 cells; conditions: CC50 Vero E6 / EC50

Structure (SMILES)	SI (SARS-CoV-2 Alpha) (SARS-CoV-2 (Alpha))	SI (HSV-2) (HSV-2)	SI (SARS-CoV-2 Omicron) (SARS-CoV-2 (Omicron))
O=c1n(CCSCCCCCCCCCOS(=O)(=O)O)c(=O)n(CCSCCCCCCCCCOS(=O)(=O)O)c(=O)n1CCSCCCCCCCCCOS(=O)(=O)O [A3C9S]	2	11	–
O=S(=O)(O)OCCCCCCSCc1cc(CSCCCCCCOS(=O)(=O)O)cc(CSCCCCCCOS(=O)(=O)O)c1 [B3C6S]	> 2.7	> 7	–
O=S(=O)(O)OCCCCCCCCCSCc1cc(CSCCCCCCCCCOS(=O)(=O)O)cc(CSCCCCCCCCCOS(=O)(=O)O)c1 [B3C9S]	13	42	11
O=S(=O)(O)OCCCCCCCCCCCSCc1cc(CSCCCCCCCCCCCOS(=O)(=O)O)cc(CSCCCCCCCCCCCOS(=O)(=O)O)c1 [B3C11S]	13	15	–
O=S(=O)(O)OCCCCCCCCCSCc1c(CSCCCCCCCCCOS(=O)(=O)O)c(CSCCCCCCCCCOS(=O)(=O)O)c(CSCCCCCCCCCOS(=O)(=O)O)c(CSCCCCCCCCCOS(=O)(=O)O)c1CSCCCCCCCCCOS(=O)(=O)O [B6C9S]	9	3	–
O=S(=O)(O)OCCCCCCCCCCCSCc1c(CSCCCCCCCCCCCOS(=O)(=O)O)c(CSCCCCCCCCCCCOS(=O)(=O)O)c(CSCCCCCCCCCCCOS(=O)(=O)O)c(CSCCCCCCCCCCCOS(=O)(=O)O)c1CSCCCCCCCCCCCOS(=O)(=O)O [B6C11S]	73	77	15
CCc1c(CSCCCCCCOS(=O)(=O)O)c(CC)c(CSCCCCCCOS(=O)(=O)O)c(CC)c1CSCCCCCCOS(=O)(=O)O [BET3C6S]	–	> 17	–
CCc1c(CSCCCCCCCCCOS(=O)(=O)O)c(CC)c(CSCCCCCCCCCOS(=O)(=O)O)c(CC)c1CSCCCCCCCCCOS(=O)(=O)O [BET3C9S]	15	6	–
O=S(=O)(O)OCCCCCCCCCCn1cc(COc2cc(OCc3cn(CCCCCCCCCCOS(=O)(=O)O)nn3)cc(OCc3cn(CCCCCCCCCCOS(=O)(=O)O)nn3)c2)nn1 [BTA3C10S]	–	> 22	–
O=S(=O)(O)OCCCCCCCCCCO[C@H]1[C@H](OS(=O)(=O)O)[C@H](OCCCCCCCCCCOS(=O)(=O)O)[C@H](OS(=O)(=O)O)[C@@H](OCCCCCCCCCCOS(=O)(=O)O)[C@@H]1OS(=O)(=O)O [I3C10S]	–	> 2	–
O=S(=O)(O)OCCCCCCCCCSCc1cccc(CSCCCCCCCCCOS(=O)(=O)O)c1CSCCCCCCCCCOS(=O)(=O)O [OB3C9S]	13	8	–
O=S(=O)(O)OCCCCCCCCCSCC(COS(=O)(=O)O)(CSCCCCCCCCCOS(=O)(=O)O)CSCCCCCCCCCOS(=O)(=O)O [P3C9S]	40	21	–
O=S(=O)(O)OCCCCCCCCCSCC(CSCCCCCCCCCOS(=O)(=O)O)(CSCCCCCCCCCOS(=O)(=O)O)CSCCCCCCCCCOS(=O)(=O)O [P4C9S]	8	29	–
